Assay results taken from patent US8278321B2 (priority 2008, dated 2012).

Test system: Vero cells treated with shiga toxin
Test: cells
Format: cell-based, African green monkey

Fc1cc(F)c2c(c1)[C@H]1C=CC[C@H]1C(c1cccnc1)N2 (mixture of isomers) [GCA, Golgicide A]
protection of Vero cells against the effects of shiga toxin: highly protected | IC50 (Chlorocebus sabaeus, Vero, read-out: IC50 of inhibition of the effect of shiga toxin on protein synthesis): 3.3 µM
